PubChem BioAssay AID624099 – ICCB-Longwood | 2012
Here is an unselected part of about 21,000 reagents tested. Over the whole deposit, 497 (2.4%) got an active call. 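Higher z means weaker E2 silencing; only reporter increases were scored, and knock-downs that hurt cell survival may mask genuine repressor factors.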 Entries without a mark were called inactive. No sequences are given here.

- Purpose: 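Human genes that papillomavirus E2 requires to repress the HPV18 LCR promoter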 (primary screen)
- System: human C33A cervical carcinoma cells (HPV-negative) stably expressing BPV1 E2 and an HPV18 LCR luciferase reporter
- Reagent: siRNA pool against human genes, 40 nM
- Timing: 72 h
- Read-out: 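Per-well luciferase luminescence, z-scored on each plate against the plate mean and SD with control wells left out, then averaged across three replicate plates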
- Reading the numbers: mean z-score and z-score: higher = stronger reporter signal, weaker E2 silencing
- Call rule: 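Mean z ≥ 2 together with z ≥ 2 in two or more of the three replicates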

The opening 2 records, ahead of the listing:
LOC388220 (retired record): mean z-score = -1.92; z-score, replicate A = -1.76; z-score, replicate B = -2.15; z-score, replicate C = -1.83
WWP2 (WW domain containing E3 ubiquitin protein ligase 2): mean z-score = -0.5; z-score, replicate A = -0.55; z-score, replicate B = -0.45; z-score, replicate C = -0.51

Results, from the first entry:
LOC388220 (retired record): mean z-score = -1.92; z-score, replicate A = -1.76; z-score, replicate B = -2.15; z-score, replicate C = -1.83
WWP2 (WW domain containing E3 ubiquitin protein ligase 2): mean z-score = -0.5; z-score, replicate A = -0.55; z-score, replicate B = -0.45; z-score, replicate C = -0.51
RBM45 (RNA binding motif protein 45): mean z-score = 0.19; z-score, replicate A = 0.17; z-score, replicate B = 0.39; z-score, replicate C = 0.02
SLC30A10: mean z-score = -0.69; z-score, replicate A = -0.84; z-score, replicate B = -0.6; z-score, replicate C = -0.61
SEMA3D (semaphorin 3D): mean z-score = 2.12 (active); z-score, replicate A = 2.17; z-score, replicate B = 2.31; z-score, replicate C = 1.86
CD1B (CD1b molecule): mean z-score = 1.28; z-score, replicate A = 1.33; z-score, replicate B = 1.38; z-score, replicate C = 1.14
DIPK1A (divergent protein kinase domain 1A): mean z-score = 0.42; z-score, replicate A = 0.34; z-score, replicate B = 0.64; z-score, replicate C = 0.29
GLYAT (glycine-N-acyltransferase): mean z-score = 1.01; z-score, replicate A = 1.07; z-score, replicate B = 1; z-score, replicate C = 0.95
SLC66A1: mean z-score = 0.03; z-score, replicate A = 0.03; z-score, replicate B = 0.02; z-score, replicate C = 0.03
LRRC8B (leucine rich repeat containing 8 VRAC subunit B): mean z-score = 0.73; z-score, replicate A = 0.46; z-score, replicate B = 1; z-score, replicate C = 0.73
SMIM26 (small integral membrane protein 26): mean z-score = 0.6; z-score, replicate A = 0.29; z-score, replicate B = 0.58; z-score, replicate C = 0.93
GNA13 (G protein subunit alpha 13): mean z-score = -0.16; z-score, replicate A = -0.04; z-score, replicate B = -0.52; z-score, replicate C = 0.09
FAM181A-AS1 (FAM181A antisense RNA 1): mean z-score = -0.22; z-score, replicate A = 0.01; z-score, replicate B = -0.42; z-score, replicate C = -0.24
C8G (complement C8 gamma chain): mean z-score = 0.93; z-score, replicate A = 1.06; z-score, replicate B = 0.98; z-score, replicate C = 0.75
